PSTVd stem 15 mutant pool in Nicotiana benthamiana

From the data files of Wu et al. 2024, doi:10.1371/journal.ppat.1012142.

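Three N. benthamiana plants were inoculated with the whole mutant pool. Samples came from the inoculated region at 5 days, the leaf margin at 10 and upper systemic leaves at 12.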

PSTVd intermediate strain, stem 15: wild type CUGGAGCGAUCGCUUCGG, pool pattern CUGGAGCGAUNGNNUNNG; upper and lower strand joined, each 5' to 3', the first 9 letters being the upper strand.

Numbers give reads per thousand; 0 = not seen among the reads, higher = more abundant.
Each site shows the three plants.
"Pool" is the share in the plasmid pool used as inoculum, on the same scale.
The inoculated region was read from the minus strand, the other sites from the plus strand.
IR is the inoculated region, LM the leaf margin, Sys the systemic leaves.
With 36,693-63,082 reads a sample, very low values are single reads.
For reference, wild type rose from 10.2 per thousand in the pool to 285, 367, 312 (inoculated region), 785, 865, 782 (leaf margin) and 854, 898, 915 (systemic leaves).
The authors trace changes outside the varied positions to PCR and sequencing errors or to mutation in the plant; presence does not show that a variant is infectious alone.

CUGGAACGAUAGGCUUUG (pool 0.0162) gave IR 0 / 0 / 0; LM 0 / 0 / 0; Sys 0 / 0 / 0.
CUGGAGCGAUAGACUAAG (pool 1.87) gave IR 0.939 / 2.51 / 1.64; LM 0 / 0.0545 / 0.0317; Sys 0 / 0.0222 / 0.
CUGGAGCGAUAGAGUACG (pool 0.711) gave IR 0.274 / 0.335 / 0.298; LM 0.0827 / 0 / 0.0317; Sys 0 / 0 / 0.
CUGGAGCGAUAGCCUCGG (pool 1.03) gave IR 0.352 / 0.461 / 0.409; LM 0.0827 / 0.0545 / 0.0159; Sys 0 / 0 / 0.
CUGGAGCGAUAGCGUCUG (pool 0.776) gave IR 0.352 / 0.251 / 0.242; LM 0 / 0.0545 / 0.0476; Sys 0 / 0 / 0.
CUGGAGCGAUAGUAUUAG (pool 0.921) gave IR 1.80 / 1.17 / 1.40; LM 0.538 / 0.0273 / 0.872; Sys 0.950 / 0 / 0.
CUGGAGCGAUCGACUUUG (pool 0.727) gave IR 0.0783 / 0.251 / 0.465; LM 0 / 0 / 0; Sys 1.70 / 0 / 0.
CUGGAGCGAUCGGAUAAG (pool 0.954) gave IR 0.274 / 0.230 / 0.261; LM 0.0620 / 0.0545 / 0.0317; Sys 0 / 0 / 0.
CUGGAGCGAUCGGGUGUG (pool 0.937) gave IR 0.254 / 0.293 / 0.354; LM 0.0620 / 0.0273 / 0.0159; Sys 0 / 0 / 0.
CUGGAGCGAUCGGUUAGG (pool 0.792) gave IR 0.254 / 0.188 / 0.261; LM 0.0207 / 0.0818 / 0.0476; Sys 0 / 0 / 0.
CUGGAGCGAUCGGUUGUG (pool 3.05) gave IR 2.04 / 2.58 / 2.01; LM 0.0827 / 0.0273 / 0.0317; Sys 0 / 0 / 0.0996.
CUGGAGCGAUCGUAUUGG (pool 1.03) gave IR 0.215 / 1.15 / 0.223; LM 0.0620 / 0 / 0.0159; Sys 0 / 0 / 0.
CUGGAGCGAUCGUGUAGG (pool 0.840) gave IR 0.215 / 0.272 / 0.223; LM 0.0620 / 0.0545 / 0.0159; Sys 0 / 0 / 0.
CUGGAGCGAUCGUUUAUG (pool 0.921) gave IR 0.294 / 0.356 / 0.205; LM 0.103 / 0.0818 / 0; Sys 0 / 0 / 0.
CUGGAGCGAUCGUUUUAG (pool 0.937) gave IR 2.09 / 1.24 / 1.58; LM 0.641 / 0 / 0.951; Sys 0.832 / 0 / 0.
CUGGAGCGAUGGCAUGCG (pool 1.10) gave IR 0.254 / 0.147 / 0.242; LM 0 / 0.0273 / 0; Sys 0 / 0 / 0.
CUGGAGCGAUGGCCUACG (pool 0.792) gave IR 0.333 / 0.272 / 0.372; LM 0.0414 / 0.136 / 0.0317; Sys 0 / 0 / 0.
CUGGAGCGAUGGCUUGCG (pool 0.727) gave IR 0.333 / 0.230 / 0.186; LM 0.0620 / 0 / 0.0159; Sys 0 / 0 / 0.
CUGGAGCGAUGGUAUGCG (pool 0.840) gave IR 0.372 / 0.188 / 0.223; LM 0.0827 / 0.0273 / 0.0317; Sys 0 / 0 / 0.
CUGGAGCGAUUGACUUUG (pool 0.743) gave IR 1.80 / 1.32 / 1.49; LM 0.0414 / 0.0545 / 0.0159; Sys 0 / 0 / 0.
CUGGAGCGAUUGCGUGAG (pool 0.743) gave IR 0.294 / 0.272 / 0.335; LM 0.0207 / 0 / 0.0317; Sys 0 / 0 / 0.
CUGGAGCGAUUGGAUCGG (pool 0.792) gave IR 0.294 / 0.230 / 0.316; LM 0.0827 / 0.0545 / 0.0476; Sys 0 / 0 / 0.
CUGGAGCGAUUGGAUGUG (pool 0.905) gave IR 0.235 / 0.147 / 0.447; LM 0.0207 / 0 / 0; Sys 0 / 0 / 0.
CUGGAGCGAUUGGUUGGG (pool 0.889) gave IR 0.313 / 0.230 / 0.354; LM 0.0620 / 0 / 0.0159; Sys 0 / 0 / 0.
CUGGAGCGAUUGUCUGGG (pool 0.873) gave IR 1.45 / 1.15 / 1.60; LM 0.434 / 0 / 0.856; Sys 0 / 0 / 0.
CUGGAGCGAUUUCUUAGG (pool 0.0162) gave IR 0 / 0 / 0; LM 0 / 0 / 0; Sys 0 / 0 / 0.

The opening 2 entries, copied out:

{"sequence": "CUGGAACGAUAGGCUUUG", "pool": "0.0162", "IR": "0 / 0 / 0", "LM": "0 / 0 / 0", "Sys": "0 / 0 / 0"}
{"sequence": "CUGGAGCGAUAGACUAAG", "pool": "1.87", "IR": "0.939 / 2.51 / 1.64", "LM": "0 / 0.0545 / 0.0317", "Sys": "0 / 0.0222 / 0"}